The test concerns the target NS3 protease (Hepatitis C virus genotype 1b, UniProt P26663). The test is described as follows: NS3 protease cell-based assay (SEAP reporter, Huh-7 cells). The arrangement: species or system HCV. As to conditions: read-out: cell. act. (EC50 code), SEAP activity, 24-hour incubation. From the text: This assay is done with Huh-7 cells, a human cell line derived from a hepatoma, co-transfected with 2 DNA constructs: one (called NS3) expressing part of the HCV non-structural polyprotein fused to the tTA protein through an NS5A-NS5B cleavage site in the following order: NS3-NS4A-NS4B-NS5A-(NS5B)tTA where (NS5B) represents the 6 first amino acids of NS5
B. This polyprotein is expressed under the control of the CMV promoter, the other (called SEAP) expressing the reporter protein, secreted alkaline phosphatase (SEAP), under the regulation of a tTA-responsive promoter. The first construct leads to the expression of a polyprotein from which the different mature proteins are released through cleavage by the NS3 protease. It is believed that the mature viral proteins forms a complex at the membrane of the endoplasmic reticulum. tTA is a fusion protein, described by Gossen and Bujard (Proc. Natl. Acad. Sci. USA 89 (1992): 5547-5551), which contains a DNA-binding domain and a transcriptional activator. Release of the tTA protein requires an NS3-dependent cleavage at the NS5A-NS5B cleavage site between NS5A and itself. This last cleavage allows tTA to migrate to the nucleus and transactivate the SEAP gene. Therefore, reduction of NS3 proteolytic activity leads to confinement of tTA to the cytoplasm and concomitant decrease in SEAP activity.
To control for cellular activities other than inhibition of NS3 protease which are due to the compound, a parallel co-transfection is done with a construct expressing tTA alone and the same reporter construct such that SEAP activity is independent of the NS3 protease.
Protocol of the assay: Huh-7 cells, grown in CHO-SFMII (Life Technologies)+10% FCS (fetal calf serum) were co-transfected with the two DNA constructs in the following proportions: 7 μg NS3+500 ng SEAP+[…] FuGENE (Boehringer Mannheim) per 4×10^6 Huh-7 cells. After 5 hours at 37° C., the cells were washed, trypsinized and plated (at 80 000 cells/well) in 96-well plates containing a range of concentrations of the compounds to be tested. After a 24-hour incubation period, the SEAP activity in the medium was measured with the Phospha-Light kit (Tropix).
Analysis of the percent inhibition of SEAP activity with respect to compound concentration was performed with the SAS software to obtain the EC50.

Amino acid sequences for entries named in this document (tags omitted). Residues count along the entry.
UniProt P26663, 1027-1657 limits assumed: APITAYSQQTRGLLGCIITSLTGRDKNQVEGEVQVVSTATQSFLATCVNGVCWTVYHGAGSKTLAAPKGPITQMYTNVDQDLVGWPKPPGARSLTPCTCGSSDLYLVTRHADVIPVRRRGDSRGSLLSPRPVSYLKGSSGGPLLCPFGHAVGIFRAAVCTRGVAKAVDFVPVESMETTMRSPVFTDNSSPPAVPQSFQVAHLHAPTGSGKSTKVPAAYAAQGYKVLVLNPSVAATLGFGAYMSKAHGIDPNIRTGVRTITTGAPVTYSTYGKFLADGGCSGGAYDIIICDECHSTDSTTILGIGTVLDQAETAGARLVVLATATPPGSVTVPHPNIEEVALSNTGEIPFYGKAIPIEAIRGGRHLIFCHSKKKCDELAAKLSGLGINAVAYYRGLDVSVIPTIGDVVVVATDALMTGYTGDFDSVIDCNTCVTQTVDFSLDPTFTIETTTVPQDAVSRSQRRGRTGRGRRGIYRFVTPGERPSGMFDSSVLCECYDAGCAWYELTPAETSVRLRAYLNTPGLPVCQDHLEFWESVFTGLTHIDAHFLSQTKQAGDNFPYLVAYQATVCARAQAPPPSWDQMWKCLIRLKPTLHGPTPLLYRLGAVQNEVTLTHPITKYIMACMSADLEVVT
UniProt P26663, 1658-1711 partner limits assumed: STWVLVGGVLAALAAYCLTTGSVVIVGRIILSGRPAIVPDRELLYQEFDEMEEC

pEC50: −log10 of the molar value.

For the compound `COc1ccc2c(O[C@@H]3C[C@H]4C(=O)N[C@]5(C(=O)O)C[C@H]5/C=C\CCCCC[C@H](NC(=O)OC5CCCC5)C(=O)N4C3)cc(-c3cccc(C)n3)nc2c1`, the negative logarithm of the EC50 (pEC50) was > 6.00.

`COc1ccc2c(O[C@@H]3C[C@H]4C(=O)N[C@]5(C(=O)O)C[C@H]5CCCCCCC[C@H](NC(=O)OC5CCC5)C(=O)N4C3)cc(-c3csc(NC(C)=O)n3)nc2c1`: the negative logarithm of the EC50 (pEC50) was > 6.00.

`CNc1nc(-c2cc(O[C@@H]3C[C@H]4C(=O)N[C@]5(C(=O)O)C[C@H]5CCCCCCC[C@H](NC(=O)OC5CCCC5)C(=O)N4C3)c3ccc(OC)cc3n2)cs1`: the pEC50 was > 6.00. As for `CCOc1cc(O[C@@H]2C[C@H]3C(=O)N[C@]4(C(=O)O)C[C@H]4CCCC[C@@H](C)CC[C@H](NC(=O)OC4CCCC4)C(=O)N3C2)c2ccc(OC)cc2n1`, the pEC50 is > 6.00. Next, `COc1ccc2c(O[C@@H]3C[C@H]4C(=O)N[C@]5(C(=O)O)C[C@H]5CCCCCCC[C@H](NC(=O)OC(C)(C)C)C(=O)N4C3)cc(-c3csc(C(C)C)n3)nc2c1`: > 6.00; `CCNc1nc(-c2cc(O[C@@H]3C[C@H]4C(=O)N[C@]5(C(=O)O)C[C@H]5/C=C\CCCCC[C@H](NC(=O)OC5CCC5)C(=O)N4C3)c3ccc(OC)cc3n2)cs1`: > 6.00. As for `CCOc1cc(O[C@@H]2C[C@H]3C(=O)N[C@]4(C(=O)O)C[C@H]4CCCCCCC[C@H](NC(=O)OC(C)(C)C)C(=O)N3C2)c2ccc(OC)cc2n1`, the negative-log EC50 (pEC50) was > 6.00. `COc1ccc2c(O[C@@H]3C[C@H]4C(=O)N[C@]5(C(=O)O)CC5/C=C\CCCCC[C@H](NC(=O)OC5CCCC5)C(=O)N4C3)cc(-n3cccn3)nc2c1` (stereo partly shown): the pEC50 is > 6.00.

With `CCNc1nc(-c2cc(O[C@@H]3C[C@H]4C(=O)N[C@]5(C(=O)O)C[C@H]5/C=C\CCCCC[C@H](NC(=O)N[C@H](C)C(C)(C)C)C(=O)N4C3)c3ccc(OC)cc3n2)cs1`, the negative-log EC50 (pEC50) was > 6.00. Under `CCNc1nc(-c2cc(O[C@@H]3C[C@H]4C(=O)N[C@]5(C(=O)O)C[C@H]5CCCCCCC[C@H](NC(=O)OC5CCC5)C(=O)N4C3)c3ccc(OC)cc3n2)cs1` stands > 6.00; under `CCOc1cc(O[C@@H]2C[C@H]3C(=O)N[C@]4(C(=O)O)C[C@H]4/C=C\CCCCC[C@H](NC(=O)C4C(C)(C)C4(C)C)C(=O)N3C2)c2ccc(OC)cc2n1`, > 6.00. Take `CCOc1cc(OC2CC3C(=O)NC4(C(=O)O)CC4CCCCCCCC(NC(=O)OC4CCCC4)C(=O)N3C2)c2ccc(OC)cc2n1` (stereo not shown): the negative-log EC50 (pEC50) is > 6.00.

As for `CCOc1cc(O[C@@H]2C[C@H]3C(=O)N[C@]4(C(=O)O)C[C@H]4/C=C\CCCCC[C@H](NC(=O)OC(C)C)C(=O)N3C2)c2ccc(OC)cc2n1`, the negative logarithm of the EC50 (pEC50) is < 6.00.

Regarding `CCOc1cc(O[C@@H]2C[C@H]3C(=O)N[C@]4(C(=O)O)C[C@H]4/C=C\CCCCC[C@H](NC(=O)C4CCCC4)C(=O)N3C2)c2ccc(OC)cc2n1`, the pEC50 was < 6.00. Under `COc1ccc2c(O[C@@H]3C[C@H]4C(=O)N[C@]5(C(=O)O)C[C@H]5/C=C\CCCCC[C@H](NC(=O)OC5CCCC5)C(=O)N4C3)cc(-n3ccc(C)n3)nc2c1` stands > 6.00. Next, `CCCC(=O)N[C@H]1CCCCC/C=C\[C@@H]2C[C@@]2(C(=O)O)NC(=O)[C@@H]2C[C@@H](Oc3cc(OCC)nc4cc(OC)ccc34)CN2C1=O`: < 6.00; `COc1ccc2c(O[C@@H]3C[C@H]4C(=O)N[C@]5(C(=O)O)C[C@H]5CCCCCCC[C@H](NC(=O)OC5CCCC5)C(=O)N4C3)cc(-c3nccs3)nc2c1`: > 6.00. Under `COc1ccc2c(O[C@@H]3C[C@H]4C(=O)N[C@]5(C(=O)O)C[C@H]5CCCCCCC[C@H](NC(=O)OC(C)(C)C)C(=O)N4C3)cc(-c3nccs3)nc2c1` stands > 6.00. For the compound `COc1ccc2c(O[C@@H]3C[C@H]4C(=O)N[C@]5(C(=O)O)C[C@H]5/C=C\CCCCC[C@H](NC(=O)N[C@H](C)C(C)(C)C)C(=O)N4C3)cc(-c3csc(NC(C)=O)n3)nc2c1`, the pEC50 is > 6.00.

On to `CCNc1nc(-c2cc(O[C@@H]3C[C@H]4C(=O)N[C@]5(C(=O)O)C[C@H]5CCCCCCC[C@H](NC(=O)OCC(C)C)C(=O)N4C3)c3ccc(OC)cc3n2)cs1`, for which the pEC50 is > 6.00. Under `COc1ccc2c(O[C@@H]3C[C@H]4C(=O)N[C@]5(C(=O)O)C[C@H]5CCCC[C@@H](C)CC[C@H](NC(=O)OC(C)(C)C)C(=O)N4C3)cc(-c3ccccc3)nc2c1` stands > 6.00; under `COc1ccc2c(OC3CC4C(=O)NC5(C(=O)O)CC5C=CCCCCCC(NC(=O)OC5CCC5)C(=O)N4C3)cc(-c3csc(NC(C)=O)n3)nc2c1` (stereo not shown), > 6.00. Under `COc1ccc2c(O[C@@H]3C[C@H]4C(=O)N[C@]5(C(=O)O)C[C@H]5CCCCCCC[C@H](NC(=O)OC(C)(C)C)C(=O)N4C3)cc(-c3csc(NC(C)=O)n3)nc2c1` stands > 6.00; under `COc1ccc2c(O[C@@H]3C[C@H]4C(=O)N[C@]5(C(=O)O)C[C@H]5CCCCCCC[C@H](NC(=O)OC(C)(C)C)C(=O)N4C3)cc(-n3cccc3)nc2c1`, > 6.00; under `COc1ccc2c(OC3CC4C(=O)NC5(C(=O)O)CC5C=CCCCCCC(NC(=O)OC5CCCC5)C(=O)N4C3)cc(-c3nccs3)nc2c1` (stereo not shown), > 6.00. Next, `CCOc1cc(O[C@@H]2C[C@H]3C(=O)N[C@]4(C(=O)O)C[C@H]4/C=C\CCCCC[C@H](NC(=O)OC4CCCC4)C(=O)N3C2)c2ccc(OC)cc2n1`: > 6.00; `COc1ccc2c(O[C@@H]3C[C@H]4C(=O)N[C@]5(C(=O)O)C[C@H]5/C=C\CCCCC[C@H](NC(=O)OC5CCCC5)C(=O)N4C3)cc(-c3csc(NC(C)=O)n3)nc2c1`: > 6.00; `COc1ccc2c(O[C@@H]3C[C@H]4C(=O)N[C@]5(C(=O)O)C[C@H]5/C=C\CCCCC[C@H](NC(=O)OC5CCCC5)C(=O)N4C3)cc(-c3nc(C(C)C)cs3)nc2c1`: > 6.00.

For `COc1ccc2c(O[C@@H]3C[C@H]4C(=O)N[C@]5(C(=O)O)C[C@H]5CCCCCCC[C@H](NC(=O)OC(C)(C)C)C(=O)N4C3)cc(-c3csc(NC=O)n3)nc2c1`, the pEC50 is > 6.00.

Turning to `COc1ccc2c(O[C@@H]3C[C@H]4C(=O)N[C@]5(C(=O)O)C[C@H]5CCCC[C@H](C)CC[C@H](NC(=O)OC(C)(C)C)C(=O)N4C3)cc(-c3ccccc3)nc2c1`, the negative logarithm of the EC50 (pEC50) was > 6.00. For the compound `COc1ccc2c(O[C@@H]3C[C@H]4C(=O)N[C@]5(C(=O)O)C[C@H]5/C=C\CCCCC[C@H](NC(=O)OC5CCCC5)C(=O)N4C3)cc(-n3cccc3)nc2c1`, the pEC50 was > 6.00. As to `COc1ccc2c(O[C@@H]3C[C@H]4C(=O)N[C@]5(C(=O)O)C[C@H]5CCCCCCC[C@H](NC(=O)OC5CCC5)C(=O)N4C3)cc(-n3cccn3)nc2c1`, the negative logarithm of the EC50 (pEC50) is > 6.00. As to `COc1ccc2c(O[C@@H]3C[C@H]4C(=O)N[C@]5(C(=O)O)C[C@H]5CCCCCCC[C@H](NC(=O)OC5CCCC5)C(=O)N4C3)cc(-n3cccn3)nc2c1`, the negative logarithm of the EC50 (pEC50) is > 6.00. Next, `COC(=O)Nc1nc(-c2cc(O[C@@H]3C[C@H]4C(=O)N[C@]5(C(=O)O)C[C@H]5CCCCCCC[C@H](NC(=O)OC(C)(C)C)C(=O)N4C3)c3ccc(OC)cc3n2)cs1`: > 6.00; `COc1ccc2c(O[C@@H]3C[C@H]4C(=O)N[C@]5(C(=O)O)C[C@H]5CCCCCCC[C@H](NC(=O)OC(C)(C)C)C(=O)N4C3)cc(-c3ccccn3)nc2c1`: > 6.00; `CNC(=O)Nc1nc(-c2cc(O[C@@H]3C[C@H]4C(=O)N[C@]5(C(=O)O)C[C@H]5CCCCCCC[C@H](NC(=O)OC(C)(C)C)C(=O)N4C3)c3ccc(OC)cc3n2)cs1`: > 6.00. Under `COc1ccc2c(O[C@@H]3C[C@H]4C(=O)N[C@]5(C(=O)O)C[C@H]5CCCCCCC[C@H](NC(=O)OC(C)(C)C)C(=O)N4C3)cc(-c3cccc(C)n3)nc2c1` stands > 6.00.

On to `COc1ccc2c(O[C@@H]3C[C@H]4C(=O)N[C@]5(C(=O)O)C[C@H]5CCCCCCC[C@H](NC(=O)OC5CCC5)C(=O)N4C3)cc(-c3nccs3)nc2c1`, for which the negative-log EC50 (pEC50) was > 6.00.

Regarding `CCOc1cc(O[C@@H]2C[C@H]3C(=O)N[C@]4(C(=O)O)C[C@H]4/C=C\CC[C@@H](C)CC[C@H](NC(=O)OC4CCCC4)C(=O)N3C2)c2ccc(OC)cc2n1`, the negative logarithm of the EC50 (pEC50) was > 6.00. Next, `COc1ccc2c(O[C@@H]3C[C@H]4C(=O)N[C@]5(C(=O)O)C[C@H]5/C=C\CCCCC[C@H](NC(=O)OC5CCCC5)C(=O)N4C3)cc(-c3csc(N)n3)nc2c1`: > 6.00.

For the origin of these results see patent US6608027B1, “Macrocyclic peptides active against the hepatitis C virus” (Boehringer Ingelheim (Canada) Ltd, priority 1999, dated 2003).
